Patent publication US10513539B2, “Hydrophobic modified peptides and their use for liver specific targeting” (Ruprecht-Karls-Universitat Heidelberg, priority 2011, dated 2019)
Like-named read-outs stand apart in the source and are kept apart here.

Settings: for radiation in the intestines and the bladder (PET summary image): 6 h post injection (FIG. 8D)
[1] = 40-60 minutes post injection (FIG. 8C)

Substance: Myristoyl-[K-Levofloxacin]-NLSTSNPLGFFPDHQLDPy (SEQ ID NO:21)-^131I [HBVpreS/myr-[K-Levofloxacin]3-20y-^131I]
- radiation found in the liver (PET summary image) (0-20 minutes post injection (FIG. 8A)): ~100%
- radiation found in the liver (PET summary image) (20-40 minutes post injection (FIG. 8B)): ~100%
- enrichment in the intestine and bladder (PET summary image) [1]: mild enrichment
- radiation found in the liver (PET summary image) [1]: Most of the radiation is found in the liver
- radiation in the intestines and the bladder (PET summary image): clear accumulation
- radiation in the intestines and the bladder (PET summary image) (listed as HBVpreS/myr-[K-Levofloxacin]3-20y-131I): traces of radioactivity
- liver specificity (overall conclusion of the PET experiments) (WAG/RJ rats): enrich specifically in the liver
- radiation found in the liver (PET summary image) (measured for 10 minutes 6 h post injection (FIG. 8D)): Most of the radiation is still found in the liver
